US20070049564A1 (Wyeth, priority 2005, published 2007)

Legend:
Test in all cases: MIC, broth microdilution
Salmonella spp. GC 566 = system: Salmonella spp. GC 566
Salmonella spp. GC 235 = system: Salmonella spp. GC 235
S. cholerasius GC 1355 = system: S. cholerasius GC 1355

Measured: MINIMAL INHIBITORY CONCENTRATION MIC

COC(=O)N(CC(=O)Nc1cc(N(C)C)c2c(c1O)C(=O)C1=C(O)[C@]3(O)C(=O)C(C(N)=O)=C(O)[C@@H](N(C)C)[C@@H]3C[C@@H]1C2)C(C)(C)C [Example 60, methyl 2-{[(5aR,6aS,7S,10aS)-9-(aminocarbonyl)-4,7-bis(dimethylamino)-1,8,10a,11-tetrahydroxy-10,12-dioxo-5,5a,6,6a,7,10,10a,12-octahydrotetracen-2-yl]amino}-2-oxoethyl(tert-butyl)carbamate]
>64 UG/ML: Salmonella spp. GC 566; Human Serum | Salmonella spp. GC 566; Mouse Serum | Salmonella spp. GC 566; Water | Salmonella spp. GC 235; Human Serum | Salmonella spp. GC 235; Mouse Serum | Salmonella spp. GC 235; Water | S. cholerasius GC 1355; Human Serum | S. cholerasius GC 1355; Mouse Serum | S. cholerasius GC 1355; Water
